Compound potency records, mixed from different reports. Data source: NIAID ChemDB in PubChem.

Common to all: target-level tests

Blank or dashed fields: not listed here.

SMILES,dose,read by,changes,endpoint,protein,strain or isolate,organism,result
CC(C)c1cc(C(C)C)c(C(=O)Nc2nnc(NC[C@@H]3CCC4CC3C4(C)C)s2)c(C(C)C)c1,,,,IC50,Polymerase,,Human cytomegalovirus,>25 µM
CN1CCN(c2nc3c(-c4ccc(F)cc4F)cc(C(=O)O)c(=O)n3cc2F)CC1,,,,IC50,Gyrase,NCTC10649,Staphylococcus aureus,3 µg/mL
CCOP(=O)(CCC(=O)Nc1cccc(OC)c1)OCC,,absorbance,,IC50,PfDXR,,Plasmodium falciparum,>500 µM
CC#Cc1cn([C@@H]2O[C@H](CO)[C@@H](O)[C@@H]2O)c(=O)[nH]c1=O,,,,IC50,DNA polymerase,G-31,Varicella zoster virus,0.16 µM
CC(C)CC(=O)NC[C@H]1O[C@@H](n2cc(I)c(=O)[nH]c2=O)C[C@@H]1O,,,,IC50,Thymidine kinase,,Herpes simplex virus 1,0.16 µM
O=C(O)C(CCCCCCCCCCCBr)P(=O)(O)O,,,,IC50,DNA polymerase,,Duck hepatitis B virus,>100 µM
O=C1C(=O)c2ccccc2C(O)=C1C1CCC(c2ccc(Cl)cc2)CC1,10 µM,,,inhibition,Dihydroorotate dehydrogenase,,Pneumocystis carinii,36.5%
CN1CCN(c2nc3c(C4CC4)cc(C(=O)O)c(=O)n3cc2F)CC1,,,,IC50,Gyrase,NCTC10649,Staphylococcus aureus,1 µg/mL
CC(C)C(=O)N1C[C@H](CN2CCC(c3ccccc3)CC2)[C@@H](c2ccccc2)C1,,radiometric,CCR5-Y251A,fold resistance,CCR5,,,81.7
O=C(N[C@H](/C=C/S(=O)(=O)c1ccccc1)CCc1ccccc1)C1CCC2(CC1)OOC1(OO2)C2CC3CC(C2)CC1C3,,fluorescence,,IC50,Falcipain-2,,Plasmodium falciparum,18.46 µM
O=C(O)c1cccc(C=C2SC(=O)N(CC(=O)N3CCN(c4ccccc4)CC3)C2=O)c1,,fluorescence,,IC50,Falcipain-2,,Plasmodium falciparum,>50 µM
Cc1cc(SC2=C(O)C[C@@](CCc3ccc(O)cc3)(C(C)C)OC2=O)c(C(C)(C)C)cc1CO,10 µM,,,inhibition,Cytochrome P450 3A4,,,14%
CN1C(=O)c2c(c3c4ccccc4n([C@@H]4O[C@H](CO)[C@@H](O)[C@H](O)[C@H]4O)c3c3[nH]c4ccccc4c23)C1=O,,,,IC50,Protein kinase C,,Candida albicans,>100 µM
Nc1nc(N)c2nc(COc3ccccc3)cnc2n1,,,,IC50,DHFR,,Pneumocystis carinii,136 µM
C[C@H](CCC1NC1(C)C)[C@H]1CC[C@@]2(C)C3=C(CC[C@]12C)[C@@]1(C)CC[C@H](O)C(C)(C)[C@@H]1CC3,,,,Ki,C24-methyltransferase,,Candida albicans,0.011 µM
COc1cc(C(=O)N[C@@H](CCC(=O)O)C(=O)O)ccc1N(C)Cc1cnc2nc(N)nc(N)c2n1,,,,IC50,DHFR,,Pneumocystis carinii,0.00049 µM
Cc1cc2c(c(O)c1C(=O)O)-c1c(O)c3c(c(O)c1C[C@H]2O)C(=O)c1c(O)cc(O)cc1C3=O,,,,IC50,Glucosidase,,Actinomadura verrucosospora,3 µg/mL
COCON1C(=O)[C@H]([C@@H](O)c2ccccc2F)N(Cc2ccc(OC)cc2)[C@@H](CC(C)C)C1=O,,,,IC50,Transcriptase,,Influenza A virus,>200 µM
NS(=O)(=O)c1ccc(CCNc2nnc(NC(=O)c3ccc4c(c3)C(=O)OC4=O)s2)cc1,,,,IC50,Polymerase,,Human cytomegalovirus,<25 µM
CN(Cc1cnc2nc(N)nc(N)c2n1)c1ccc(C(=O)N[C@@H](CCC(=O)O)C(=O)O)cc1Br,,,,IC50,DHFR,,Pneumocystis carinii,0.00109 µM
O=P(O)(O)C(O)P(=O)(O)O,,,,IC50,DNA polymerase,,Herpes simplex virus 1,120 µM
CCC(CC)[C@H](NC(C)=O)[C@@H]1[C@H](O)[C@@H](C(=O)O)C[C@H]1N=C(N)N,,,,IC50,Influenza virus neuraminidase,H3N2,Influenza A virus,0.0006 µM
O=C1C=COC=C2C[C@@]34SS[C@]5(CC6=COC=CC(O)C6N5C3=O)C(=O)N4C12,,,,IC50,RNA polymerase,TYPE A21,Coxsackie virus,0.06 µg/mL
COCON1C(=O)[C@H]([C@H](O)c2ccc(F)cc2)N(Cc2ccc(OC)cc2)[C@@H](Cc2ccccc2)C1=O,,,,IC50,Transcriptase,,Influenza A virus,>200 µM
CCOc1cc(OCC)nc(NC(=S)NC(=O)c2ccc(-c3ccccc3Cl)o2)n1,,,,IC50,Neuraminidase,H1N1,Influenza A virus,9.5 µM
O=C(CCN1C(=O)/C(=C/c2ccc3c(c2)OCO3)SC1=S)NNC(=O)c1cccnc1,,absorbance,,IC50,Pantothenate synthetase,,Mycobacterium tuberculosis,1.12 µM
Nc1cc2[nH]cnc2c(=O)[nH]1,500 µM,,,inhibition,RNA polymerase,,Simian rotavirus,13%
O=C1N2C3C(=COC=CC3O)C[C@]23SSSS[C@]12CC1=COC=CC(O)C1N2C3=O,,,,IC50,RNA polymerase,TYPE A21,Coxsackie virus,0.0001 µg/mL
CN1C(=O)[C@]23CC4=CC=C[C@H](O)[C@H]4N2C(=O)[C@@]1(CO)SS3,,,,IC50,RNA polymerase,TYPE A21,Coxsackie virus,0.003 µg/mL
O=C(O)CCCCCCCCCCC(C(=O)O)P(=O)(O)O,,,,IC50,DNA polymerase,,Duck hepatitis B virus,>100 µM
O=C(Nc1nnc(NC2CCN(Cc3ccccc3)CC2)s1)c1ccc(Br)cc1,,,,IC50,Polymerase,,Human cytomegalovirus,>25 µM
Cc1cccc(C=C2SC(=O)N(CC(=O)N3CCN(c4ccccc4)CC3)C2=O)c1,,fluorescence,,IC50,Falcipain-2,,Plasmodium falciparum,45.33 µM
CCC(CC)Nc1cc(C(=O)O)ccc1N1C(=O)CCC1(CO)CCO,,,,IC50,Neuraminidase,B/LEE,Influenza B virus,>1000 µM
COc1cc(Cl)nc(NC(=S)NC(=O)c2ccc(-c3ccccc3Cl)o2)n1,,,,IC50,Neuraminidase,H1N1,Influenza A virus,18.7 µM
O=P(O)(O)OP(=O)(O)O,,,,IC50,DNA polymerase,,Herpes simplex virus 2,500 µM
NC(=O)c1ncn([C@@H]2O[C@H](COC(=O)c3ccc(S(=O)(=O)F)cc3)[C@@H](O)[C@H]2O)n1,300 µM,,,inhibition,NTPase/helicase,,Dengue virus,29%
N#Cc1ccc(C(=O)Nc2nnc(NCCCCc3ccccc3)s2)cc1,,,,IC50,Polymerase,,Human cytomegalovirus,<25 µM
CC1(C)N=C(N)N=C(N)N1c1ccc(OCCNS(=O)(=O)c2cccc(S(=O)(=O)F)c2)c(Cl)c1,,,,IC50,DHFR,,Pneumocystis carinii,0.34 µM
O=C(CCN1C(=O)/C(=C/c2ccc(Cl)cc2)SC1=S)NNC(=O)c1ccccc1,,absorbance,,IC50,Pantothenate synthetase,,Mycobacterium tuberculosis,4.89 µM
NC[C@H]1O[C@@H](n2ccc(=O)[nH]c2=O)C[C@@H]1O,,,,IC50,Thymidine kinase,,Herpes simplex virus 1,>5 µM
Cc1ccc(-c2cc3cn([C@H]4C[C@H](O)[C@@H](CO)O4)c(=O)nc3o2)cc1,,,,IC50,Thymidine kinase,TK+,Varicella zoster virus,3.1 µM
CCCCCC(C(=O)O)P(=O)(O)O,,,,IC50,DNA polymerase,,Duck hepatitis B virus,>100 µM
COc1cc(/C=C2\SC(=S)N(CCC(=O)NNC(=O)c3cccnc3)C2=O)cc(OC)c1OC,,absorbance,,IC50,Pantothenate synthetase,,Mycobacterium tuberculosis,2.12 µM
O=c1nc2oc(-c3ccccc3)cc2cn1[C@H]1C[C@H](O)[C@@H](CO)O1,,,,IC50,Thymidine kinase,TK+,Varicella zoster virus,0.37 µM
O=C(/C=C/c1ccccc1)Nc1nnc(NCCc2cccs2)s1,,,,IC50,Polymerase,,Human cytomegalovirus,<25 µM
COc1cc(O)c2c(c1)C(=O)c1c(cc3c(c1O)-c1c(cc(C)c(C(=O)O)c1O)[C@H](O)[C@H]3O)C2=O,,,,IC50,Glucosidase,,Actinomadura verrucosospora,96 µg/mL
Cc1csc2nc([C@H](C)NC(=O)/C=C/c3ccc(N(C)C)cc3)oc(=O)c12,,,,IC50,Protease,,Varicella zoster virus,0.028 µM
CCC(=O)NC[C@H]1O[C@@H](n2cc(I)c(=O)[nH]c2=O)C[C@@H]1O,,,,IC50,Thymidine kinase,,Herpes simplex virus 1,0.41 µM
COc1ccc(CNc2cnc(N)nc2N)cc1OC,,,,IC50,Dihydrofolate reductase,,Candida albicans,125.8 µM
COc1ccccc1C(=O)Nc1nnc(NC2CCCc3ccccc32)s1,,,,IC50,Polymerase,,Human cytomegalovirus,>25 µM
O=C(CN1C(=O)SC(=Cc2ccccc2OC(F)(F)F)C1=O)N1CCN(c2ccccc2)CC1,,fluorescence,,IC50,Falcipain-2,,Plasmodium falciparum,35.28 µM
CCCCCCCC/C=C/CCCCCCCC(=O)Nc1nnc(NCCCN2CCN(C)CC2)s1,,,,IC50,Polymerase,,Human cytomegalovirus,<25 µM
COc1cccc(NC(=O)CCP(=O)(O)O)c1,,absorbance,,IC50,PfDXR,,Plasmodium falciparum,>500 µM
CC(C)C[C@H](NC(=O)C1CCC2(CC1)OOC1(OO2)C2CC3CC(C2)CC1C3)C(=O)N[C@H](/C=C/S(=O)(=O)c1ccccc1)CCc1ccccc1,,fluorescence,,IC50,Falcipain-2,,Plasmodium falciparum,1.802 µM
COCON1C(=O)[C@H]([C@H](O)c2ccc(F)cc2)N(Cc2ccc(OC)cc2)[C@@H](CC(C)C)C1=O,,,,IC50,Transcriptase,,Influenza A virus,>200 µM
CC(=O)NC[C@H]1O[C@@H](n2cc(I)c(=O)[nH]c2=O)C[C@@H]1O,,,,IC50,Thymidine kinase,,Herpes simplex virus 1,0.56 µM
NC1CCN(c2nc3c(C4CC4)cc(C(=O)O)c(=O)n3cc2F)C1,,,,IC50,Gyrase,NCTC10649,Staphylococcus aureus,0.15 µg/mL
CN(Cc1cnc2nc(N)nc(N)c2n1)c1ccc(C(=O)NC(CCC(=O)NC(CCC(=O)O)C(=O)O)C(=O)O)cc1,,,,IC50,DHFR,,Pneumocystis carinii,0.0002 µM
O=C(CN1C(=O)SC(=Cc2ccc(OC(F)(F)F)cc2)C1=O)N1CCN(c2ccccc2)CC1,,fluorescence,,IC50,Falcipain-2,,Plasmodium falciparum,13.44 µM
CC(CCC[NH+](C)C)C1CC[C@@]2(C)C3=C(CCC12C)C1(C)CCC(O)C(C)(C)C1CC3,,,,Ki,C24-methyltransferase,,Candida albicans,0.059 µM
COCON1C(=O)/C(=C/c2ccccc2F)N(Cc2ccc(OC)cc2)[C@@H](CC(C)C)C1=O,,,,IC50,Transcriptase,,Influenza A virus,>200 µM
CCCCCCCCCCCNc1nnc(NC(=O)c2c(Cl)cccc2Cl)s1,,,,IC50,Polymerase,,Human cytomegalovirus,>25 µM
O=C(O)C(CCCC12CC3CC(CC(C3)C1)C2)P(=O)(O)O,,,,IC50,DNA polymerase,,Duck hepatitis B virus,>100 µM
O=C(O)C(=O)O,,,,IC50,DNA polymerase,,Herpes simplex virus 2,400 µM
Nc1nc(N)c(-c2ccc(Cl)c(Cl)c2)c(COc2cccc3ccccc23)n1,,,,IC50,DHFR,,Pneumocystis carinii,3.9 µM
O=C(CCN1C(=O)/C(=C/c2ccc3c(c2)OCO3)SC1=S)NNC(=O)c1cccc2ccccc12,,absorbance,,IC50,Pantothenate synthetase,,Mycobacterium tuberculosis,1.05 µM
CCCCCCCCc1cc2cn([C@H]3C[C@H](O)[C@@H](CO)S3)c(=O)nc2o1,,,,IC50,Thymidine kinase,TK+,Varicella zoster virus,31 µM
CC(=O)OC1C=COC=C2C[C@@]34NC(=S)S[C@]5(CC6=COC=CC(OC(C)=O)C6N5C3=O)C(=O)N4C21,,,,IC50,RNA polymerase,TYPE A21,Coxsackie virus,3 µg/mL
CCOP(=O)(CC(=O)Nc1cccc(Br)c1)OCC,,absorbance,,IC50,PfDXR,,Plasmodium falciparum,>500 µM
O=C(O)c1cc(C2CC2)c2nc(N3CCOCC3)c(F)cn2c1=O,,,,IC50,Gyrase,NCTC10649,Staphylococcus aureus,1.5 µg/mL
CC(C)C[C@@H](/C=C/S(C)(=O)=O)NC(=O)[C@H](CC(C)C)NC(=O)C1CCC2(CC1)OOC1(OO2)C2CC3CC(C2)CC1C3,,fluorescence,,IC50,Falcipain-2,,Plasmodium falciparum,1.698 µM
COc1cc(O)c2c(c1)C(=O)c1c(O)c3c(c(OC)c1C2=O)C[C@@H](O)c1cc(C)c(C(=O)N[C@H](C)C(=O)O)c(O)c1-3,,,,IC50,Glucosidase,,Actinomadura verrucosospora,17 µg/mL
O=C1N2C3C(=COC=CC3O)CC23SSC12CC1=COC=CC(O)C1N2C3=O,,,,IC50,RNA polymerase,TYPE A21,Coxsackie virus,0.007 µg/mL

The first 4 rows once more:

SMILES	dose	read by	changes	endpoint	protein	strain or isolate	organism	result
CC(C)c1cc(C(C)C)c(C(=O)Nc2nnc(NC[C@@H]3CCC4CC3C4(C)C)s2)c(C(C)C)c1				IC50	Polymerase		Human cytomegalovirus	>25 µM
CN1CCN(c2nc3c(-c4ccc(F)cc4F)cc(C(=O)O)c(=O)n3cc2F)CC1				IC50	Gyrase	NCTC10649	Staphylococcus aureus	3 µg/mL
CCOP(=O)(CCC(=O)Nc1cccc(OC)c1)OCC		absorbance		IC50	PfDXR		Plasmodium falciparum	>500 µM
CC#Cc1cn([C@@H]2O[C@H](CO)[C@@H](O)[C@@H]2O)c(=O)[nH]c1=O				IC50	DNA polymerase	G-31	Varicella zoster virus	0.16 µM

ICn: concentration for n% inhibition. Fold resistance has wild type as its base. Conditions beyond the fields shown may differ between rows. Percent inhibition refers to the dose given; in toxicity tests it is the harm to the cells.